Laboratory results from article PMC11832194, “Cystatin from Austrelaps superbus snake venom as a model for identifying potential inhibitors of Trypanosoma cruzi cruzain” (The Journal of Venomous Animals and Toxins Including …, 2025).

These sequences were tested on NCTC clone 929 fibroblasts (assay: In vitro cytotoxicity on fibroblasts (resazurin)). Details: NCTC929 cytotoxicity versus T. cruzi epimastigote trypanocidal activity.
Assay type: cell-based, murine
Description: In these experiments, NCTC clone 929 fibroblasts were cultured in a 96-well plate with 180 µL of minimal essential medium (MEM) supplemented with 10% FBS, penicillin and streptomycin antibiotics. About 2 × 10^4 cells per well were cultured and incubated at 37°C for 48 hours in a 5% CO2 environment with different concentrations of synthetic peptides (500-62.5 µM). Then, 20 µL of a resazurin solution was added, reaching a final concentration of 2 mM. The plate was incubated again at 37°C for 4 hours, and absorbance was monitored at 570 and 600 nm using a Synergy H1 multi-mode spectrophotometer (BIOTEK). GraphPad Prism software determined the half-maximal cytotoxic concentration (CC50) (v.6.01). The CC50 of the reference drug benznidazole was also determined to finally determine the selectivity index

Row | Sequence | SI (selectivity index)
1 | GGLQVVTGPW [Pep5] | > 1.05
2 | KGGLQVVTGAPWK [Pep7] | > 1.28
3 | KIPGGQVVTGPWK [Pep8] | > 1.06

No end group written: not given here.
